The values that follow come from patent publication US9611303B2, “Modified biotin-binding protein” (Japan Tobacco Inc., priority 2009, dated 2017).

A short description of this data set: Expression of LATM2 in soluble fraction of E. coli. The conditions noted are these: Western blotting.

B1: TM2 W108R: TM2 in which the 108th tryptophan was replaced with arginine (protein)
chain: MSDVQSSLTGTWYNELNSKMELTANKDGTLTGKYLSKVGDVYVPYPLSGRYNLQPPAGQGVALGWAVSWENSKIHSATTWSGQFFSESSPVILTQWLLSSSTARGDVRESTLVGNDSFTKTAPTEQQIAHAQLHCRAPRLK
As to B1, the “expression in E. coli soluble fraction” value is “hardly observed”.

B2: TM2 S18A: TM2 in which the 18th serine was replaced with alanine (protein)
chain: MSDVQSSLTGTWYNELNAKMELTANKDGTLTGKYLSKVGDVYVPYPLSGRYNLQPPAGQGVALGWAVSWENSKIHSATTWSGQFFSESSPVILTQWLLSSSTARGDVWESTLVGNDSFTKTAPTEQQIAHAQLHCRAPRLK
Regarding B2, the “expression in E. coli soluble fraction” value is recorded as “hardly observed”.

B3: TM2 Y34A: TM2 in which the 34th tyrosine was replaced with alanine (protein)
chain: MSDVQSSLTGTWYNELNSKMELTANKDGTLTGKALSKVGDVYVPYPLSGRYNLQPPAGQGVALGWAVSWENSKIHSATTWSGQFFSESSPVILTQWLLSSSTARGDVWESTLVGNDSFTKTAPTEQQIAHAQLHCRAPRLK
Regarding B3, the “expression in E. coli soluble fraction” value was “hardly observed”.
